Reference: patent publication US20220089698A1, “ANTIBODIES THAT TARGET HIV GP120 AND METHODS OF USE” (published 2022)

Columns and labels:
Experiment in all cases: cell-based or functional assay
[1] = target: HIV-1 envelope glycoprotein (gp120) of virus 92US712 (HIV-1)
[2] = target: HIV-1 envelope glycoprotein (gp120) of virus VS001 (HIV-1)
[3] = target: HIV-1 envelope glycoprotein (gp120) of virus 7141 (HIV-1)
[4] = target: HIV-1 envelope glycoprotein (gp120) of virus 92US727 (HIV-1)

| Binder | Neutralization IC50 [1] [µg/mL] | Neutralization IC50 [2] [µg/mL] | Neutralization IC50 [3] [µg/mL] | Neutralization IC50 [4] [µg/mL] |
| --- | --- | --- | --- | --- |
| 2.2.9-1 (antibody, human IgG1, kappa, V domains shown) VH: QVHLSQSGAAVTKPGASVRVSCEASGYKIRDHFIHWWRQAPGQGLQWVGWINPKTGQPNNPRQFQGRVSLTRHASWDFDTFSFYMDLKAVRSDDTAIYFCARQRSDYWDFDVWGSGTQVTVSS VL: DIQMTQSPSSLSARVGDTATITCQANGYLNWYQQRRGKAPKLLIYDGSKLERGVPARFSGRRWGQEYNLTINNLQPEDVATYFCQVYEFFGPGTRLDLKR | 0.06 |  |  |  |
| 2.3.9-1 (antibody, human IgG1, kappa, V domains shown) VH: QVHLSQSGAAVTKPGASVRVSCEASGYNIRDYFIHWWRQAPGQGLQWVGWINPKTGQPNNPRQFQGRVSLTRHASWDFDTFSFYMDLKAVRSDDTAIYFCARQRSDYWDFDVWGSGTQVTVSS VL: DIQMTQSPSSLSARVGDTATITCQANGYLNWYQQRRGKAPKLLIYDGSKLERGVPARFSGRRWGQEYNLTINNLQPEDVATYFCQVYEFFGPGTRLDLKR | 0.09 |  |  |  |
| 2.2.12-1 (antibody, human IgG1, kappa, V domains shown) VH: QVHLSQSGAAVTKPGASVRVSCEASGYKIRDHFIHWWRQAPGQGLQWVGWINPKTGQPNNPRQFQGRVSLTRHASWDFDTFSFYMDLKAVRSDDTAIYFCARQRSDYWDFDVWGSGTQVTVSS VL: DIQMTQSPSSLSARVGDTATITCQANGYLNWYQQRRGKAPKLLIYDGSKLERGVPARFSGRRWGQEYILTINNLQPEDVATYFCQVYEFFGPGTRLDLKR | 0.04 |  |  |  |
| 2.3.12-1 (antibody, human IgG1, kappa, V domains shown) VH: QVHLSQSGAAVTKPGASVRVSCEASGYNIRDYFIHWWRQAPGQGLQWVGWINPKTGQPNNPRQFQGRVSLTRHASWDFDTFSFYMDLKAVRSDDTAIYFCARQRSDYWDFDVWGSGTQVTVSS VL: DIQMTQSPSSLSARVGDTATITCQANGYLNWYQQRRGKAPKLLIYDGSKLERGVPARFSGRRWGQEYILTINNLQPEDVATYFCQVYEFFGPGTRLDLKR | 0.09 |  |  |  |
| 2.2.13-1 (antibody, human IgG1, kappa, V domains shown) VH: QVHLSQSGAAVTKPGASVRVSCEASGYKIRDHFIHWWRQAPGQGLQWVGWINPKTGQPNNPRQFQGRVSLTRHASWDFDTFSFYMDLKAVRSDDTAIYFCARQRSDYWDFDVWGSGTQVTVSS VL: DIQMTQSPSSLSARVGDRATITCQANGYLNWYQQRRGKAPKLLIYDGSKLERGVPARFSGSRWGQEYILTISSLQPEDVATYFCQVYEFFGPGTRLDLKR | 0.08 |  |  |  |
| 2.3.13-1 (antibody, human IgG1, kappa, V domains shown) VH: QVHLSQSGAAVTKPGASVRVSCEASGYNIRDYFIHWWRQAPGQGLQWVGWINPKTGQPNNPRQFQGRVSLTRHASWDFDTFSFYMDLKAVRSDDTAIYFCARQRSDYWDFDVWGSGTQVTVSS VL: DIQMTQSPSSLSARVGDRATITCQANGYLNWYQQRRGKAPKLLIYDGSKLERGVPARFSGSRWGQEYILTISSLQPEDVATYFCQVYEFFGPGTRLDLKR | 0.14 |  |  |  |
| 1.42.1-1 (antibody, human IgG1, kappa) heavy: QVHLLQSGAAVTKPGASVRVSCEASGYNIRDYFIHWWRQAPGQGLQWVGWINPKTGQPNNPRQFQGRVSLTRHASWDFDTFSFYMDLKALRSDDTAVYFCARQRSDYWDFDVWGSGTQVTVSSASTKGPSVFPLAPSSKSTSGGTAALGCLVKDYFPEPVTVSWNSGALTSGVHTFPAVLQSSGLYSLSSVVTVPSSSLGTQTYICNVNHKPSNTKVDKKVEPKSCDKTHTCPPCPAPELLAGPDVFLFPPKPKDTLMISRTPEVTCVVVDVSHEDPEVKFNWYVDGVEVHNAKTKPREEQYNSTYRVVSVLTVLHQDWLNGKEYKCKVSNKALPLPEEKTISKAKGQPREPQVYTLPPSREEMTKNQVSLTCLVKGFYPSDIAVEWESNGQPENNYKTTPPVLDSDGSFFLYSKLTVDKSRWQQGNVFSCSVLHEALHSHYTQKSLSLSPGK light: not shown |  | 0.11 | 2.34 | 0.98 |
| 1.43.1-1 (antibody, human IgG1, kappa) heavy: QVQLSQSGAAVTKPGASVRVSCEASGYNIRDYFIHWWRQAPGQGLQWVGWINPKTGQPNNPRQFQGRVSLTRHASWDFDTFSFYMDLKALRSDDTAVYFCARQRSDYWDFDVWGSGTQVTVSSASTKGPSVFPLAPSSKSTSGGTAALGCLVKDYFPEPVTVSWNSGALTSGVHTFPAVLQSSGLYSLSSVVTVPSSSLGTQTYICNVNHKPSNTKVDKKVEPKSCDKTHTCPPCPAPELLAGPDVFLFPPKPKDTLMISRTPEVTCVVVDVSHEDPEVKFNWYVDGVEVHNAKTKPREEQYNSTYRVVSVLTVLHQDWLNGKEYKCKVSNKALPLPEEKTISKAKGQPREPQVYTLPPSREEMTKNQVSLTCLVKGFYPSDIAVEWESNGQPENNYKTTPPVLDSDGSFFLYSKLTVDKSRWQQGNVFSCSVLHEALHSHYTQKSLSLSPGK light: not shown |  | 0.1 | 2.42 | 3.35 |
| 1.45.1-1 (antibody, human IgG1, kappa) heavy: QVQLLQSGAAVTKPGASVRVSCEASGYNISDYFIHWWRQAPGQGLQWVGWINPKTGQPNNPRQFQGRVSLTRHASWDFDTFSFYMDLKALRSDDTAVYFCARQRSDYWDFDVWGSGTQVTVSSASTKGPSVFPLAPSSKSTSGGTAALGCLVKDYFPEPVTVSWNSGALTSGVHTFPAVLQSSGLYSLSSVVTVPSSSLGTQTYICNVNHKPSNTKVDKKVEPKSCDKTHTCPPCPAPELLAGPDVFLFPPKPKDTLMISRTPEVTCVVVDVSHEDPEVKFNWYVDGVEVHNAKTKPREEQYNSTYRVVSVLTVLHQDWLNGKEYKCKVSNKALPLPEEKTISKAKGQPREPQVYTLPPSREEMTKNQVSLTCLVKGFYPSDIAVEWESNGQPENNYKTTPPVLDSDGSFFLYSKLTVDKSRWQQGNVFSCSVLHEALHSHYTQKSLSLSPGK light: not shown |  | 27.6 | > 50 | > 50 |
| 1.46.1-1 (antibody, human IgG1, kappa) heavy: QVQLLQSGAAVTKPGASVRVSCEASGYNIRDHFIHWWRQAPGQGLQWVGWINPKTGQPNNPRQFQGRVSLTRHASWDFDTFSFYMDLKALRSDDTAVYFCARQRSDYWDFDVWGSGTQVTVSSASTKGPSVFPLAPSSKSTSGGTAALGCLVKDYFPEPVTVSWNSGALTSGVHTFPAVLQSSGLYSLSSVVTVPSSSLGTQTYICNVNHKPSNTKVDKKVEPKSCDKTHTCPPCPAPELLAGPDVFLFPPKPKDTLMISRTPEVTCVVVDVSHEDPEVKFNWYVDGVEVHNAKTKPREEQYNSTYRVVSVLTVLHQDWLNGKEYKCKVSNKALPLPEEKTISKAKGQPREPQVYTLPPSREEMTKNQVSLTCLVKGFYPSDIAVEWESNGQPENNYKTTPPVLDSDGSFFLYSKLTVDKSRWQQGNVFSCSVLHEALHSHYTQKSLSLSPGK light: not shown |  | 0.24 | 2.44 | 1.68 |
| 1.47.1-1 (antibody, human IgG1, kappa) heavy: QVQLLQSGAAVTKPGASVRVSCEASGYNIRDYFIHWWRQAPGQGLQWVGWINPKTGQPNNPRQFQGRVSLTRQASWDFDTFSFYMDLKALRSDDTAVYFCARQRSDYWDFDVWGSGTQVTVSSASTKGPSVFPLAPSSKSTSGGTAALGCLVKDYFPEPVTVSWNSGALTSGVHTFPAVLQSSGLYSLSSVVTVPSSSLGTQTYICNVNHKPSNTKVDKKVEPKSCDKTHTCPPCPAPELLAGPDVFLFPPKPKDTLMISRTPEVTCVVVDVSHEDPEVKFNWYVDGVEVHNAKTKPREEQYNSTYRVVSVLTVLHQDWLNGKEYKCKVSNKALPLPEEKTISKAKGQPREPQVYTLPPSREEMTKNQVSLTCLVKGFYPSDIAVEWESNGQPENNYKTTPPVLDSDGSFFLYSKLTVDKSRWQQGNVFSCSVLHEALHSHYTQKSLSLSPGK light: not shown |  | 0.24 | 2.48 | 1.17 |
| 1.49.1-1 (antibody, human IgG1, kappa) heavy: QVQLLQSGAAVTKPGASVRVSCEASGYNIRDYFIHWWRQAPGQGLQWVGWINPKTGQPNNPRQFQGRVSLTRHASWDFDTFSFYMDLKAVRSDDTAVYFCARQRSDYWDFDVWGSGTQVTVSSASTKGPSVFPLAPSSKSTSGGTAALGCLVKDYFPEPVTVSWNSGALTSGVHTFPAVLQSSGLYSLSSVVTVPSSSLGTQTYICNVNHKPSNTKVDKKVEPKSCDKTHTCPPCPAPELLAGPDVFLFPPKPKDTLMISRTPEVTCVVVDVSHEDPEVKFNWYVDGVEVHNAKTKPREEQYNSTYRVVSVLTVLHQDWLNGKEYKCKVSNKALPLPEEKTISKAKGQPREPQVYTLPPSREEMTKNQVSLTCLVKGFYPSDIAVEWESNGQPENNYKTTPPVLDSDGSFFLYSKLTVDKSRWQQGNVFSCSVLHEALHSHYTQKSLSLSPGK light: not shown |  | 0.26 | 2.98 | 2.41 |
| 1.50.1-1 (antibody, human IgG1, kappa) heavy: QVQLLQSGAAVTKPGASVRVSCEASGYNIRDYFIHWWRQAPGQGLQWVGWINPKTGQPNNPRQFQGRVSLTRHASWDFDTFSFYMDLKALRSDDTAIYFCARQRSDYWDFDVWGSGTQVTVSSASTKGPSVFPLAPSSKSTSGGTAALGCLVKDYFPEPVTVSWNSGALTSGVHTFPAVLQSSGLYSLSSVVTVPSSSLGTQTYICNVNHKPSNTKVDKKVEPKSCDKTHTCPPCPAPELLAGPDVFLFPPKPKDTLMISRTPEVTCVVVDVSHEDPEVKFNWYVDGVEVHNAKTKPREEQYNSTYRVVSVLTVLHQDWLNGKEYKCKVSNKALPLPEEKTISKAKGQPREPQVYTLPPSREEMTKNQVSLTCLVKGFYPSDIAVEWESNGQPENNYKTTPPVLDSDGSFFLYSKLTVDKSRWQQGNVFSCSVLHEALHSHYTQKSLSLSPGK light: not shown |  | 0.14 | 2.54 | 0.92 |
| 1.51.1-1 (antibody, human IgG1, kappa) heavy: QVQLLQSGAAVTKPGASVRVSCEASGYNIRDYFIHWWRQAPGQGLQWVGWINPKTGQPNNPRQFQGRVSLTRHASWDFDTFSFYMDLKALRSDDTAVYFCARQRSDFWDFDVWGSGTQVTVSSASTKGPSVFPLAPSSKSTSGGTAALGCLVKDYFPEPVTVSWNSGALTSGVHTFPAVLQSSGLYSLSSVVTVPSSSLGTQTYICNVNHKPSNTKVDKKVEPKSCDKTHTCPPCPAPELLAGPDVFLFPPKPKDTLMISRTPEVTCVVVDVSHEDPEVKFNWYVDGVEVHNAKTKPREEQYNSTYRVVSVLTVLHQDWLNGKEYKCKVSNKALPLPEEKTISKAKGQPREPQVYTLPPSREEMTKNQVSLTCLVKGFYPSDIAVEWESNGQPENNYKTTPPVLDSDGSFFLYSKLTVDKSRWQQGNVFSCSVLHEALHSHYTQKSLSLSPGK light: not shown |  | 0.22 | 3.5 | 2.67 |
